## PSTVd loop 6 mutant pool in Nicotiana benthamiana

Reference: Wu et al. 2024, doi:10.1371/journal.ppat.1012142.

The pool varies loop 6 of the PSTVd intermediate strain in the pattern UNNNCGNNNG; wild type is UGACCGCGAG (upper and lower strand joined, each 5' to 3', the first 5 letters being the upper strand, closing pairs included).

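A pool of all variants was put on leaves of three Nicotiana benthamiana plants. Progeny were sequenced from the inoculated region (day 5), the margin of the inoculated leaf (day 10) and systemic leaves (day 12).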

Values are reads per thousand in the sample; higher means more abundant, 0 means not found. Each site shows the three plants. "Pool" is the share in the plasmid pool used as inoculum, on the same scale. The inoculated region was read from the minus strand, the other sites from the plus strand. Wild type was 20.7 per thousand in the pool and the most common sequence in every sample (inoculated region 195, 198, 203; leaf margin 629, 591, 734; systemic leaves 942, 870, 868).

sequence	pool	inoculated region	leaf margin	systemic leaves
UCCACGCAAG	0.118	0.956 / 0.844 / 0.443	0 / 0.0252 / 0.116	0 / 0 / 0
UCCACGCACG	0.235	0.0869 / 0.108 / 0.0369	0 / 0 / 0	0 / 0 / 0
UCCACGCAGG	0.170	0.0695 / 0.0359 / 0.148	0 / 0 / 0	0 / 0 / 0
UCCACGCAUG	0.131	0.0695 / 0.0898 / 0.111	0 / 0 / 0	0 / 0 / 0
UCCACGCCAG	0.118	0.139 / 0.108 / 0.0922	0.0276 / 0 / 0	0 / 0 / 0
UCCACGCCCG	0.209	0.0695 / 0.0719 / 0.0922	0 / 0 / 0.0232	0 / 0 / 0
UCCACGCCGG	0.261	0.139 / 0.0539 / 0.0922	0 / 0 / 0	0 / 0 / 0
UCCACGCCUG	0.183	0.0869 / 0.0539 / 0.0738	0 / 0 / 0	0 / 0 / 0
UCCACGCGAG	0.248	0.0695 / 0.0719 / 0.0553	0.166 / 0 / 0	0 / 0 / 0.0615
UCCACGCGAU	0.0131	0.0174 / 0.0719 / 0.111	0 / 0 / 0	0 / 0 / 0
UCCACGCGCG	0.170	0.0695 / 0.0359 / 0.111	0 / 0 / 0	0 / 0 / 0
UCCACGCGGG	0.196	0.0695 / 0.0898 / 0.0369	0.0276 / 0 / 0.0232	0 / 0 / 0
UCCACGCGUG	0.118	0.122 / 0.0539 / 0.148	0.0276 / 0 / 0	0 / 0 / 0
UCCACGCUAG	0.183	0.122 / 0.0898 / 0.0553	0 / 0 / 0.0232	0 / 0 / 0
UCCACGCUCG	0.196	0.122 / 0.0539 / 0	0 / 0 / 0	0 / 0 / 0
UCCACGCUGG	0.131	0.0348 / 0.108 / 0.0553	0 / 0 / 0.0232	0 / 0 / 0
UCCACGCUUG	0.222	0.0869 / 0.0719 / 0.111	0.0276 / 0 / 0	0 / 0 / 0
UCCACGGAAG	0.131	0.191 / 0.0539 / 0.0553	0 / 0 / 0	0 / 0 / 0
UCCACGGACC	0.0131	0 / 0 / 0	0 / 0 / 0	0 / 0 / 0
UCCACGGACG	0.301	0.400 / 0.808 / 0.664	0.166 / 0.0252 / 0.0696	0 / 0 / 0
UCCACGGAGG	0.222	0.226 / 0.0539 / 0.0922	0.0276 / 0 / 0	0 / 0 / 0
UCCACGGAUG	0.235	0.156 / 0.0719 / 0.0922	0.0552 / 0 / 0	0 / 0 / 0
UCCACGGCAG	0.183	0.104 / 0.0359 / 0.0738	0 / 0 / 0.0232	0 / 0 / 0
UCCACGGCCG	0.222	0.0695 / 0.0359 / 0.0553	0 / 0 / 0	0 / 0.0404 / 0
UCCACGGCGG	0.157	0.0521 / 0.0539 / 0.0553	0 / 0 / 0.0464	0 / 0 / 0
UCCACGGCUG	0.327	0 / 0.108 / 0.0553	0.0276 / 0 / 0	0 / 0 / 0
UCCACGGGAG	0.157	0.0869 / 0.0898 / 0.0553	0 / 0 / 0.0232	0 / 0.0202 / 0
UCCACGGGCG	0.118	0.0695 / 0.108 / 0.0184	0 / 0 / 0.0232	0 / 0 / 0
UCCACGGGGG	0.105	0.0695 / 0.0539 / 0.0738	0 / 0 / 0	0 / 0 / 0
UCCACGGGUG	0.131	0.139 / 0.0898 / 0.129	0.0276 / 0 / 0	0 / 0 / 0
UCCACGGUAG	0.275	0.104 / 0.0539 / 0.0922	0.0276 / 0 / 0	0 / 0 / 0
UCCACGGUCG	0.209	0.139 / 0.0719 / 0.111	0.0276 / 0 / 0	0 / 0 / 0
UCCACGGUGG	0.288	0.104 / 0.126 / 0.111	0 / 0 / 0.0232	0 / 0 / 0
UCCACGGUUG	0.209	0.0869 / 0.108 / 0.0553	0 / 0 / 0	0 / 0 / 0
UCCACGUAAG	0.0915	0.0521 / 0.0898 / 0.0738	0 / 0 / 0	0 / 0 / 0
UCCACGUACG	0.314	0.104 / 0.0719 / 0.0184	0 / 0 / 0	0 / 0 / 0
UCCACGUAGG	0.248	0.104 / 0.0898 / 0.0369	0 / 0 / 0	0 / 0 / 0
UCCACGUAUG	0.209	0.104 / 0.0539 / 0.0184	0.304 / 0 / 0.0232	0 / 0 / 0
UCCACGUCAG	0.248	0.139 / 0.108 / 0.0369	0.0276 / 0 / 0	0 / 0 / 0
UCCACGUCCG	0.288	0.0695 / 0.0898 / 0.111	0 / 0 / 0.0232	0 / 0 / 0
UCCACGUCGG	0.196	0.0521 / 0.0898 / 0.0553	0.0276 / 0 / 0	0 / 0 / 0
UCCACGUCUG	0.314	0.0695 / 0.108 / 0.0369	0.0276 / 0 / 0	0 / 0 / 0
UCCACGUGAG	0.222	0.191 / 0.108 / 0.0922	0 / 0 / 0.0232	0 / 0 / 0
UCCACGUGCG	0.170	0.139 / 0.0539 / 0.0184	0.0552 / 0 / 0.0232	0 / 0 / 0
UCCACGUGGG	0.105	0.174 / 0.0898 / 0.0553	0.0276 / 0 / 0.0232	0 / 0 / 0
UCCACGUGUG	0.105	0.0695 / 0.0898 / 0.0369	0 / 0 / 0.0232	0 / 0 / 0
UCCACGUUAG	0.288	0.122 / 0.0539 / 0.0369	0 / 0 / 0	0 / 0 / 0
UCCACGUUCG	0.366	0.122 / 0.0180 / 0.0553	0.0552 / 0 / 0.0232	0 / 0 / 0
UCCACGUUGG	0.235	0.0869 / 0.0719 / 0.0369	0 / 0 / 0.0232	0 / 0 / 0
UCCACGUUUG	0.431	0.104 / 0.0898 / 0.0553	0 / 0 / 0	0 / 0 / 0
UCCACUCGAG	0.0131	0 / 0 / 0	0.0276 / 0 / 0	0 / 0 / 0

Extract of 4 entries:

| sequence | pool | inoculated region | leaf margin | systemic leaves |
|---|---|---|---|---|
| UCCACGUGAG | 0.222 | 0.191 / 0.108 / 0.0922 | 0 / 0 / 0.0232 | 0 / 0 / 0 |
| UCCACGCUUG | 0.222 | 0.0869 / 0.0719 / 0.111 | 0.0276 / 0 / 0 | 0 / 0 / 0 |
| UCCACGUAUG | 0.209 | 0.104 / 0.0539 / 0.0184 | 0.304 / 0 / 0.0232 | 0 / 0 / 0 |
| UCCACGCGCG | 0.170 | 0.0695 / 0.0359 / 0.111 | 0 / 0 / 0 | 0 / 0 / 0 |

Sequences that differ at fixed positions probably stem from PCR or sequencing errors, and defective variants can be carried along by functional ones. Samples held 36,220 to 57,551 reads, so the smallest values rest on one or two reads.